Test system: skin surface with redness, induration, swelling and erythema due to exposure to poison ivy
Test: Topical treatment of poison ivy skin reaction
Settings: topical medicament containing 2% by weight Tβ4, after one day, same skin surface

Substance: thymosin beta 4
- erythema in the treated area compared to the untreated area: significantly reduced
- induration in the treated area compared to the untreated area: significantly reduced
- itching of the treated area compared to the untreated area: significantly less

Reference: patent US20090053194A1, “METHOD OF TREATING OR […] IMMUNOLOGICAL RESPONSES TO A REACTIVE CHEMICAL OR BIOLOGICAL OR TOXIC AGENT” (published 2009)
